Measurements published in the supplement of paper PMC9931576.
Human monoclonal antibodies against the spike receptor-binding domain (heavy:light variable regions). IC50 against pseudoviruses bearing the spike of naturally observed variants; lower = stronger; >10 µg/ml means not reached at the top dose. No active / inactive call. The stated detection limit is 0.0005 µg/ml; values near or below 0.001 µg/ml lie at the floor of the assay.

B1: BD56-1300 (protein)
chain 1: EVQLVESGGGFIQPGGSLRLSCAASGFTFSTYDMLWVRQATGKGLEWVSTIGTAGDTYYPDSVKGRITISRENAKNSLYLQMNNLRAGDTAVYYCARMGETMVRGISRLYYYYYMDVWGKGTTVTVSS
chain 2: DIQMTQSPSSLSASVGDRVIITCRASQSISSYLNWYQQKPGKAPKLLIYAASSLQSGVPSRFSGSGSGTDFTLTISSLQPEDFATYYCQQSYISPMYTFGQGTKLEIK
B2: BD56-1285 (protein)
chain 1: QVQLVQSGTEVKKPGASVKVSCKASGYSFTSYGFSWVRQAPGQGLEWMGWISAYNGNTDYAQRLQGRVTMTTDTSTTTAYMELRSLRFDDTAVYYCARDFGEISGSENFDLWGQGTLVTVSS
chain 2: EIVLTQSPATLSLSPGERATLSCRASQSLSIYLAWFQQKPGQAPRLLIYHASNRATGIPARFSGSGSGTDFTLTISSLEPEDFAVYYCQQRSKWPSFGQGTRLEIK
B3: BD56-1287 (protein)
chain 1: QVQLQESGPGLVKPSQTLSLTCTVSGGSIRGGGYYWSWIRQPPGKGLQWIGYIFYSGTTYYNPSLQSRASISVDPSKNQFSLNLTSVTAADTAVYFCASSAYDGSPGGFEYWGQGTQVTVSS
chain 2: QSALTQPPSASGSPGQSVTISCIGLSSDVGGYKYVSWYQQHPGKAPKLIIYEVTKRPSGVPDRFSGSKSANTASLTVSGLRAEDEADYYCCSYAGNNNWVFGGGTKLTVL
B4: COV2-2308 (protein)
chain 1: EVQLLESGGGLIQPGGSLRLSCAASGFTFSNYAMSWVRQAPGKGLEWVSGIISSSGGATYNADSVRGRFTTSRDNSKNILYLQMNSLRGEDTAVYYCVKGLFDWFPLWGQGTMVTVSS
chain 2: DIVMTQSPATLSVSPGERAILSCRASQSVRSNLAWYQQKPGQAPRLLISGASTRATAIPARFSGSGSGTEFTLTITSLQSEDCAVYYCHQYNNWPQTFGQGTKVEIK
B5: BD56-1305 (protein)
chain 1: QAQLVESGGGVLQPGRSLRLSCVASRLTFSAYGMHWVRQAPGKGLEWVAVISSDGSNKYYADSVKGRFSISRDNSKNTLYLQMNSLRAEDAAVYYCARLLGYYDGSGYFGNEYWGQGTLVTVSS
chain 2: QSALTQPASVSGSPGQSITISCTGTSSDVGGYNFVSWYQQHPGKAPKLMIYDVSDRPSGVSNRFSGSKSGNTASLAISGLQAEDEADYYCSSYTSSSTVVFGGGTKLTVL
B6: BD56-1309 (protein)
chain 1: QVQLVESGGGVVQPGRSLRLSCAASGFTFSSYVMHWVRQAPGKGLEWVAVISYDGSEKYYADSVKGRFTVSRDNSKNTLYLQMHSLRAEDTAVYYCARDFSFRGSGWPEYFQHWGQGTLVTVSS
chain 2: SYVLTQPPSVSVAPGKTASIACGGKNIGTKGVHWYQQKPGQAPLLVIYYDSDRPSGIPERISGSKSGNTATLSISRVEAGDEADYYCQVWDSSSDHVVFGGGTKLTVL
B7: BD56-1302 (protein)
chain 1: EVQLVESGGGLVQPGGSLRLSCAASGLIVSRNYMSWVRQPPGRGLEWVSLLFAGGSTFYADSVKGRFTISRDNSKNTLYLQMSSLRNEDTAVYYCARDLGPVGATDVWGQGTTVTVSS
chain 2: EIVMTQSPATLSVSPGGKATLSCRASQSIHSSLAWYQQKPGQAPRLLIYDASTRATGIPARFGGSGSGTEFTLTISSLQSEDFAVYHCQQYHTWPPMYTFGQGTKLEIK
B8: BD56-1296 (protein)
chain 1: QVQLVQSGAEVKKPGASVKVSCKASGYTFTNYYIHWVRQAPGQGLAWMGMINPSGGTARYAQKFQGRVTMTRDTSTSAVYMELSSLTSEDTAIYYCARELVAPAAGYMDVWGKGTTVTVSS
chain 2: SYVLTQPPSVSVAPGKTASITCGGTDIGSKSVHWYQQKPGQAPVLVVYYDSDRPSGIPERFSGSNSGNTATLTISRVEAGDEADYYCQVWDSISDHFYVFGTGTKVTVL
B9: BD56-1281 (protein)
chain 1: EVQLVESGGGLVKPGGSLRLSCAASGFTFSSYDMYWVRQAPGKGLEWVSSITRSASYIYYADSLKGRFTISRDNAMNSLFLQMNSLKADDTAIYYCARGGSFLPYFDLWGRGSLVTVSS
chain 2: NFMLTQPHSVSESPGKTVTISCTGSSGSIANNYVQWYQQRPGSAPTNVIYEDNQRPSGVPERFSGSIDSSSNSASLTISGLKTEDEADYYCQSYDSKKSVIFGGGTKLTVL
B10: BD56-1303 (protein)
chain 1: QVQLQESGPGLVKPSETLSLTCTVAGGSISNYYWSWIRQPAGKGLEWIGRVYISGSTNYIPSLKGRVTMSLDTSKNQFSLRLRSVTAADTAVYYCATSGSGTFSDYWSFDLWGRGTLVTVSS
chain 2: NFMLTQPHSVSESPGKTVTISCTRSSGSIASNYVQWYQRRPGSAPTTVIYEDNQRPSGVPDRFSGSIDTSSNSASLTISGLKTEDEADYYCQSYDTSNVVFGGGTKLTVL
B11: COV2-2113 (protein)
chain 1: EVQLVESGGGLIQPGGSLRLSCAASEVTVSSNYMSWVRQAPGKGLEWVSLIYSGGTTYYADSVKGRFTISRDNSKNTLYLQMNSLRAEDTAVYYCARDFLRWHDLWGQGTLVTVSS
chain 2: DIQMTQSPSSLSASVGDRVTITCQASQDINNYLNWYQQKPGKAPKLLIYDASNLETGVPLRFSGSGSGTDFIFTISSLQPEDIATYYCQQYDNLPPVFGGGTKVEIK
B12: BD56-1311 (protein)
chain 1: QVQLVQSGAEVKKPGASVKVSCRASGYTFTAYYLHWVRQAPGQGLEWMGWINPDSGDTNYAQTFQGRVTMTRDTSITTAYMELSRLTSDDTAVYYCARDLSALGPSYADDNAFDIWGQGTMVTVSP
chain 2: SYELTQPPSASVSPGQTAKITCSGQTWPTQYAYWYQLKPGQAPVLVIYKDSERPSGIPERFSGSSSGTTVTLTIRGVQAEDEADYYCQSADSRGVVFGGGTKLTVL

molecular target: SARS-CoV-2 Omicron BA.1 spike pseudovirus; test: pseudovirus neutralization IC50; higher = weaker neutralization
Method: (§1)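 Single-round VSV luciferase pseudovirus mixed with antibody dilutions for 1 h and put on Huh-7 cells for about a day; IC50 from the dose curve.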

| Binder | pseudovirus neutralization IC50 [µg/mL] |
| --- | --- |
| B1 | > 10 |
| B2 | 0.265 |
| B3 | 0.166 |
| B4 | 2.6 |
| B5 | > 10 |
| B6 | 0.00917 |
| B7 | 0.00217 |
| B8 | > 10 |
| B9 | 0.462 |
| B10 | 0.181 |
| B11 | > 10 |
| B12 | > 10 |

molecular target: SARS-CoV-2 Omicron BA.2 spike pseudovirus; test: as above
Method: as §1

| Binder | pseudovirus neutralization IC50 [µg/mL] |
| --- | --- |
| B1 | > 10 |
| B2 | 0.169 |
| B3 | 0.504 |
| B4 | 3.98 |
| B5 | > 10 |
| B6 | 0.00981 |
| B7 | 0.00273 |
| B8 | > 10 |
| B9 | 0.011 |
| B10 | 0.038 |
| B11 | > 10 |
| B12 | > 10 |

molecular target: SARS-CoV-2 Omicron BA.2.75 spike pseudovirus; test: as above
Method: as §1

| Binder | pseudovirus neutralization IC50 [µg/mL] |
| --- | --- |
| B1 | > 10 |
| B2 | 0.244 |
| B3 | > 10 |
| B4 | 0.0117 |
| B5 | > 10 |
| B6 | > 10 |
| B7 | 0.00402 |
| B8 | > 10 |
| B9 | 0.0273 |
| B10 | 0.0666 |
| B11 | > 10 |
| B12 | > 10 |

molecular target: SARS-CoV-2 Omicron BA.5 spike pseudovirus; test: as above
Method: as §1

| Binder | pseudovirus neutralization IC50 [µg/mL] |
| --- | --- |
| B1 | > 10 |
| B2 | > 10 |
| B3 | 0.371 |
| B4 | > 10 |
| B5 | > 10 |
| B6 | > 10 |
| B7 | 0.00205 |
| B8 | > 10 |
| B9 | 2.13 |
| B10 | 0.0598 |
| B11 | > 10 |
| B12 | > 10 |

molecular target: SARS-CoV-2 Omicron BQ.1.1 spike pseudovirus; test: as above
Method: as §1

| Binder | pseudovirus neutralization IC50 [µg/mL] |
| --- | --- |
| B1 | > 10 |
| B2 | > 10 |
| B3 | > 10 |
| B4 | > 10 |
| B5 | > 10 |
| B6 | > 10 |
| B7 | 0.0149 |
| B8 | > 10 |
| B9 | 2.75 |
| B10 | > 10 |
| B11 | > 10 |
| B12 | > 10 |

molecular target: SARS-CoV-2 Omicron XBB spike pseudovirus; test: as above
Method: as §1

| Binder | pseudovirus neutralization IC50 [µg/mL] |
| --- | --- |
| B1 | > 10 |
| B2 | > 10 |
| B3 | > 10 |
| B4 | > 10 |
| B5 | > 10 |
| B6 | > 10 |
| B7 | 0.0181 |
| B8 | > 10 |
| B9 | 2.05 |
| B10 | 3.37 |
| B11 | > 10 |
| B12 | > 10 |

molecular target: SARS-CoV-2 early D614G spike pseudovirus; test: as above
Method: as §1

| Binder | pseudovirus neutralization IC50 [µg/mL] |
| --- | --- |
| B1 | > 10 |
| B2 | 0.577 |
| B3 | 0.00161 |
| B4 | 0.0091 |
| B5 | 1.02 |
| B6 | 0.00591 |
| B7 | 0.00572 |
| B8 | > 10 |
| B9 | 0.514 |
| B10 | 0.0669 |
| B11 | 0.0164 |
| B12 | 0.707 |
